# Values from PubChem BioAssay AID1224833 (University of Georgia, 2016).
# Screen: 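Human genes whose knock-down alters rotavirus replication in monkey cells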 (primary screen)
# Cells: monkey MA104 kidney cells
# Knock-down reagent: siRNA pool against human genes, 50 nM
# Timing: 48 h knock-down before infection; read 24 h after infection
# Conditions: infection with rotavirus strain RV3 two days after transfection; infectious dose for this stage not given
# Detection: 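z-score of rotavirus antigen signal per well, from a fluorescent immunoassay, relative to non-targeting control wells on the same plate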
# Direction: z-score vs non-targeting control: higher = more rotavirus replication than with non-targeting control
# Hit rule: In these data the active calls have z-score vs non-targeting control at about -1 or lower, or at about 1 or higher
# Meaning of the calls: active = z-score beyond 1 either way; inactive = z-score within 1 of zero
# The deposit covers about 12,000 reagents; this is a part drawn at random. About 5,600 of them (46%) were called active. 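Active calls cover z-scores past 1 in both directions, so they include lowered as well as raised rotavirus replication.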 Entries without a mark were called inactive. No sequences are given here.
target gene,z-score vs non-targeting control
RHEX (regulator of hemoglobinization and erythroid cell expansion),1.75 (active)
MEIS3 (Meis homeobox 3),-1.3 (active)
GTF2H5 (general transcription factor IIH subunit 5),-0.184
CNDP1 (carnosine dipeptidase 1),1.33 (active)
TIMM22 (translocase of inner mitochondrial membrane 22),-2.13 (active)
OR2A42 (olfactory receptor family 2 subfamily A member 42),-1.69 (active)
OR5T3 (olfactory receptor family 5 subfamily T member 3),-0.691
H2AJ (H2A.J histone),0.563
CDC20B (cell division cycle 20B),-0.892
BRK1 (BRICK1 subunit of SCAR/WAVE actin nucleating complex),-1.54 (active)
SNN (stannin),-1.03 (active)
NOP9 (NOP9 nucleolar protein),0.0396
IRF6 (interferon regulatory factor 6),1.19 (active)
EID1 (EP300 interacting inhibitor of differentiation 1),-0.888
FOXS1 (forkhead box S1),1.5 (active)
SLC16A3,-0.955
PARG (poly(ADP-ribose) glycohydrolase),-0.765
RTKN (rhotekin),0.853
KLHL9 (kelch like family member 9),1 (active)
DOCK5 (dedicator of cytokinesis 5),0.176
GBF1,-1.01 (active)
TMEM39A (transmembrane protein 39A),-1.88 (active)
CDH2 (cadherin 2),-1.24 (active)
IL2RG (interleukin 2 receptor subunit gamma),1.47 (active)
PDCD2L (programmed cell death 2 like),-0.62
MRPL23 (mitochondrial ribosomal protein L23),-1.49 (active)
OR5D18 (olfactory receptor family 5 subfamily D member 18),-1.77 (active)
CDH26 (cadherin 26),-0.888
PLAAT4 (phospholipase A and acyltransferase 4),1.09 (active)
PPP4R3A (protein phosphatase 4 regulatory subunit 3A),-0.704
ACRV1 (acrosomal vesicle protein 1),-1.1 (active)
TMEM14C (transmembrane protein 14C),-1.95 (active)
LYSMD1 (LysM domain containing 1),-0.0828
FAM222B (family with sequence similarity 222 member B),-0.767
MSANTD3 (Myb/SANT DNA binding domain containing 3),-1.32 (active)
PCDHB5 (protocadherin beta 5),-0.939
GOLGA1 (golgin A1),-1.3 (active)
ZNF519 (zinc finger protein 519),-0.808
PYCR1 (pyrroline-5-carboxylate reductase 1),0.527
PHAX (phosphorylated adaptor for RNA export),-1.45 (active)
ZBTB41 (zinc finger and BTB domain containing 41),-0.363
MINDY1 (MINDY lysine 48 deubiquitinase 1),-0.88
UTP14C (UTP14C small subunit processome component),-0.583
XKRX (XK related X-linked),-0.478
TNFRSF8 (TNF receptor superfamily member 8),-0.641
ATP2A3,-1.89 (active)
PAQR6 (progestin and adipoQ receptor family member 6),-0.568
CD28 (CD28 molecule),-0.575
SIMC1 (SUMO interacting motifs containing 1),0.509
ZBP1 (Z-DNA binding protein 1),-0.114
FAM47B (family with sequence similarity 47 member B),-1.73 (active)
DYNAP (dynactin associated protein),1.64 (active)
UNC93A (unc-93 homolog A),-1.08 (active)
PKP2 (plakophilin 2),-0.534
FFAR1 (free fatty acid receptor 1),-1.47 (active)
C19orf73 (chromosome 19 open reading frame 73),0.956
MAPK8IP1 (mitogen-activated protein kinase 8 interacting protein 1),-2.38 (active)
SNHG28 (small nucleolar RNA host gene 28),-0.875
PNOC (prepronociceptin),-0.0954
RFC5 (replication factor C subunit 5),1.69 (active)
TRAPPC13 (trafficking protein particle complex subunit 13),-1.03 (active)
ELMOD3 (ELMO domain containing 3),-2.62 (active)
MED27 (mediator complex subunit 27),1.93 (active)
ACTR3B (actin related protein 3B),-1.09 (active)
ARK2N (arkadia (RNF111) N-terminal like PKA signaling regulator 2N),-0.881
OR2AT4 (olfactory receptor family 2 subfamily AT member 4),-0.927
OR51B4 (olfactory receptor family 51 subfamily B member 4),-1.89 (active)
PAFAH2 (platelet activating factor acetylhydrolase 2),1.81 (active)
PRG4 (proteoglycan 4),0.856
OR14I1 (olfactory receptor family 14 subfamily I member 1),-1.28 (active)
OR4K17 (olfactory receptor family 4 subfamily K member 17),1 (active)
KPNA1 (karyopherin subunit alpha 1),-1.34 (active)
IQCC (IQ motif containing C),-1.68 (active)
OVCH1 (ovochymase 1),0.902
TYMS (thymidylate synthetase),-0.702
KCTD17 (potassium channel tetramerization domain containing 17),0.673
BMP8A (bone morphogenetic protein 8a),-1.77 (active)
PIBF1 (progesterone immunomodulatory binding factor 1),-0.879
RHBDL2 (rhomboid like 2),1.08 (active)
TDRD9 (tudor domain containing 9),-0.656
SVBP (small vasohibin binding protein),1.32 (active)
CCL3L1 (C-C motif chemokine ligand 3 like 1),-0.0497
GLRX3 (glutaredoxin 3),-1.02 (active)
RPS10 (ribosomal protein S10),1.8 (active)
CYP4F12 (cytochrome P450 family 4 subfamily F member 12),0.545
LEMD3 (LEM domain containing 3),-0.715
OR6C70 (olfactory receptor family 6 subfamily C member 70),-0.799
ADO (2-aminoethanethiol dioxygenase),-0.999
SLCO1B3,-0.0769
DCTN2 (dynactin subunit 2),0.25
CLEC10A (C-type lectin domain containing 10A),-0.321
PLD1 (phospholipase D1),1.08 (active)
PPDPFL,-0.39
C1orf198 (chromosome 1 open reading frame 198),-1.31 (active)
INKA1 (inka box actin regulator 1),-1.26 (active)
LDLR (low density lipoprotein receptor),-1.79 (active)
PIF1 (PIF1 5'-to-3' DNA helicase),-1.24 (active)
CALCB (calcitonin related polypeptide beta),-0.0193
OR2B11 (olfactory receptor family 2 subfamily B member 11),-0.384
MS4A10 (membrane spanning 4-domains A10),-0.45
ZNF596 (zinc finger protein 596),-0.74
LEPROT (leptin receptor overlapping transcript),-0.726
ZNF800 (zinc finger protein 800),1.45 (active)
NRN1 (neuritin 1),-1.35 (active)
FERD3L (Fer3 like bHLH transcription factor),-0.385
CD38 (CD38 molecule),0.838
ACTL6A (actin like 6A),2.2 (active)
SLX4 (SLX4 structure-specific endonuclease subunit),-0.353
SIRAL1 (SIR2 antiphage like 1),0.788
LAMA2 (laminin subunit alpha 2),-3.36 (active)

As entered above:
Under “z-score vs non-targeting control”, C1orf198 (chromosome 1 open reading frame 198) shows -1.31 (active)
Under “z-score vs non-targeting control”, SLC16A3 reads -0.955
PNOC (prepronociceptin), z-score vs non-targeting control = -0.0954
For “z-score vs non-targeting control”, CLEC10A (C-type lectin domain containing 10A) reads -0.321
Entry of GLRX3 (glutaredoxin 3) in “z-score vs non-targeting control”: -1.02 (active)
Value for SLCO1B3 in “z-score vs non-targeting control”: -0.0769
